# Share of PSTVd loop 15 variants by leaf site

Region: loop 15 of PSTVd (intermediate strain), upper and lower strand joined, each 5' to 3', the first 7 letters being the upper strand, closing pairs included. Wild type: GGAAACCGCUACUAC. Varied positions (N): GGAAACCGNNNNNNC.

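Three N. benthamiana plants were inoculated with the whole mutant pool. Samples came from the inoculated region at 5 days, the leaf margin at 10 and upper systemic leaves at 12.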

Numbers give reads per thousand; 0 = not seen among the reads, higher = more abundant.
Each value is the mean of three plants.
"Pool" is the share in the plasmid pool used as inoculum, on the same scale.
The inoculated region was read from the minus strand, the other sites from the plus strand.
Wild type was 33.9 per thousand in the pool and the most common sequence in every sample (inoculated region 202, 200, 159; leaf margin 724, 746, 710; systemic leaves 856, 883, 880).
Sequences that differ at fixed positions probably stem from PCR or sequencing errors, and defective variants can be carried along by functional ones.
With 43,870-66,106 reads a sample, very low values are single reads.

With GGAAACCGGGGUAUC (pool 0.160) the assay gave inoculated region 0.155; leaf margin 0; systemic leaves 0.
With GGAAACCGCAAUACC (pool 0.176) the assay gave inoculated region 0.137; leaf margin 0.0121; systemic leaves 0.
With GGAAACCGGGGCUGC (pool 0.352) the assay gave inoculated region 0.0796; leaf margin 0.0141; systemic leaves 0.
With GGAAACCGACGGUGC (pool 0.224) the assay gave inoculated region 0.448; leaf margin 0.0932; systemic leaves 0.0107.
With GGAAACCGCAAGCCC (pool 0.272) the assay gave inoculated region 0.0797; leaf margin 0.0382; systemic leaves 0.
With GGAAACCGUUAGUGC (pool 0.192) the assay gave inoculated region 0.316; leaf margin 0.108; systemic leaves 0.0107.
With GGAAACCGGGACAUC (pool 0.224) the assay gave inoculated region 0.0617; leaf margin 0.00668; systemic leaves 0.
With GGAAACCGGUUCACC (pool 0.176) the assay gave inoculated region 0.113; leaf margin 0.0175; systemic leaves 0.00760.
With GGAAACCGACUCAGC (pool 0.320) the assay gave inoculated region 0.0803; leaf margin 0; systemic leaves 0.00760.
With GGAAACCGUAGAUUC (pool 0.192) the assay gave inoculated region 0.324; leaf margin 0.115; systemic leaves 0.00537.
With GGAAACCGAUCUUCC (pool 0.288) the assay gave inoculated region 0.0679; leaf margin 0.00742; systemic leaves 0.
With GGAAACCGCGUGCUC (pool 0.208) the assay gave inoculated region 0.416; leaf margin 0.00539; systemic leaves 0.00537.
With GGAAACCGAACCUGC (pool 0.224) the assay gave inoculated region 0.120; leaf margin 0; systemic leaves 0.
With GGAAACCGAUUGCUC (pool 0.160) the assay gave inoculated region 0.0828; leaf margin 0.0141; systemic leaves 0.
With GGAAACCGGGACCGC (pool 0.272) the assay gave inoculated region 0.117; leaf margin 0.0134; systemic leaves 0.00760.
With GGAAACCGUCAAUCC (pool 0.192) the assay gave inoculated region 0.367; leaf margin 0.436; systemic leaves 0.0322.
With GGAAACCGGUUAUGC (pool 0.224) the assay gave inoculated region 0.146; leaf margin 0.00742; systemic leaves 0.
With GGAAACCGAGGCAGC (pool 0.272) the assay gave inoculated region 0.122; leaf margin 0.00539; systemic leaves 0.
With GGAAACCGCGUUAGC (pool 0.320) the assay gave inoculated region 0.152; leaf margin 0.0187; systemic leaves 0.
With GGAAACCGUCCGCAC (pool 0.320) the assay gave inoculated region 0.170; leaf margin 0.0108; systemic leaves 0.00537.
With GGAAACCGCCCUCAC (pool 0.176) the assay gave inoculated region 0.134; leaf margin 0; systemic leaves 0.
With GGAAACCGUUUUGUC (pool 0.224) the assay gave inoculated region 0.0932; leaf margin 0.00668; systemic leaves 0.
With GGAAACCGUGUCGCC (pool 0.176) the assay gave inoculated region 0.102; leaf margin 0.00742; systemic leaves 0.
With GGAAACCGGUUUGAC (pool 0.288) the assay gave inoculated region 0.0805; leaf margin 0.0202; systemic leaves 0.
With GGAAACCGGCGGUAC (pool 0.160) the assay gave inoculated region 0.310; leaf margin 0.123; systemic leaves 0.0332.
With GGAAACCGCUGAGCC (pool 0.128) the assay gave inoculated region 0.171; leaf margin 0.00742; systemic leaves 0.
With GGAAACCGGUUUAGC (pool 0.352) the assay gave inoculated region 0.102; leaf margin 0.00742; systemic leaves 0.
With GGAAACCGCUCCAAC (pool 0.192) the assay gave inoculated region 0.112; leaf margin 0.00539; systemic leaves 0.
With GGAAACCGUGCCAAC (pool 0.288) the assay gave inoculated region 0.0829; leaf margin 0.0187; systemic leaves 0.00537.
With GGAAACCGCGUAACC (pool 0.192) the assay gave inoculated region 0.0901; leaf margin 0.00668; systemic leaves 0.
With GGAAACCGUUUCGCC (pool 0.304) the assay gave inoculated region 0.0622; leaf margin 0.0141; systemic leaves 0.
With GGAAACCGAACCAGC (pool 0.208) the assay gave inoculated region 0.0974; leaf margin 0.00742; systemic leaves 0.
With GGAAACCGGUAAACC (pool 0.224) the assay gave inoculated region 0.0867; leaf margin 0.00668; systemic leaves 0.
With GGAAACCGAAAGAUC (pool 0.384) the assay gave inoculated region 0.332; leaf margin 0.112; systemic leaves 0.00537.
With GGAAACCGGGUAAAC (pool 0.0960) the assay gave inoculated region 0.177; leaf margin 0.00742; systemic leaves 0.0158.
With GGAAACCGCCAGUUC (pool 0.288) the assay gave inoculated region 0.418; leaf margin 0.162; systemic leaves 0.0635.
With GGAAACCGGUAAUAC (pool 0.0800) the assay gave inoculated region 0.288; leaf margin 0.123; systemic leaves 0.0462.
With GGAAACCGUGAGACC (pool 0.256) the assay gave inoculated region 0.267; leaf margin 0.165; systemic leaves 0.0215.

Extract of 3 entries:

sequence,pool,inoculated region,leaf margin,systemic leaves
GGAAACCGGUUAUGC,0.224,0.146,0.00742,0
GGAAACCGCGUAACC,0.192,0.0901,0.00668,0
GGAAACCGCUGAGCC,0.128,0.171,0.00742,0

Reference: Wu et al. 2024, doi:10.1371/journal.ppat.1012142.